Pooled drug test results. Numbers come from NIAID ChemDB, via PubChem.

Shared fields: tests in culture; organism: HIV-2; measure: EC50

ECn is the concentration giving n% inhibition of infection, replication or growth.

{"compound": "COC(=O)CNP(=O)(OC[C@@H]1C=C[C@H](n2cc(C)c(=O)[nH]c2=O)O1)Oc1ccccc1", "strain or isolate": "ROD", "cell line": "CEM + CEM/0", "method": "cytopathic effect / trypan blue", "result": "6 µM"}
{"compound": "Clc1ccc(-c2nc(-c3nnc(C45CCC6CC(CC4C6)C5)o3)cs2)cc1", "strain or isolate": "ROD", "cell line": "MT-4", "method": "MTT", "result": ">125 µM"}
{"compound": "COC(=O)[C@H](C)NP(=O)(OC[C@@H]1C=C[C@H](n2cc(C)c(=O)[nH]c2=O)O1)Oc1ccccc1", "strain or isolate": "ROD", "cell line": "CEM + CEM TK-", "method": "cytopathic effect / trypan blue", "result": "0.075 µM"}
{"compound": "COc1ccc(S(=O)(=O)NC(Cc2ccccc2)c2nnc(Nc3ccc(Br)cc3)s2)cc1", "strain or isolate": "ROD", "cell line": "MT-4", "method": "MTT", "result": ">1.98 µM"}
{"compound": "COc1ccc(OP(=O)(N[C@@H](C)C(=O)OCc2ccccc2)OC[C@@H]2CCC(n3ccc(=O)[nH]c3=O)O2)c2ccccc12", "strain or isolate": "ROD", "cell line": "CEM", "method": "syncytia", "result": "21 µM"}
{"compound": "Cc1ccc(S(=O)(=O)NC(C)c2nnc(Nc3ccc(Br)cc3)s2)cc1", "strain or isolate": "ROD", "cell line": "MT-4", "method": "MTT", "result": ">8.09 µM"}
{"compound": "Fc1cccc(-c2nc(-c3nnc(C45CCC6CC(CC4C6)C5)o3)cs2)c1", "strain or isolate": "ROD", "cell line": "MT-4", "method": "MTT", "result": ">125 µM"}
{"compound": "COc1ccc(Nc2nnc(C(C)NS(=O)(=O)c3ccc(Cl)cc3)s2)cc1", "strain or isolate": "ROD", "cell line": "MT-4", "method": "MTT", "result": ">21.38 µM"}
{"compound": "C[C@H](NP(=O)(OC[C@@H]1C=C[C@H](n2ccc(=O)[nH]c2=O)O1)Oc1ccccc1)C(=O)OCc1ccccc1", "strain or isolate": "ROD", "cell line": "CEM", "method": "syncytia", "result": ">50 µM"}
{"compound": "CCC(C)Oc1nc(Cc2ccccc2)c(C)c(=O)[nH]1", "strain or isolate": "ROD", "cell line": "MT-4", "method": "cytopathic effect / MTT", "result": ">200 µM"}
{"compound": "CC(C)OC(=O)[C@H](C)NP(=O)(OC[C@@H]1C=CC(n2ccc(=O)[nH]c2=O)O1)Oc1cccc2ccccc12", "strain or isolate": "ROD", "cell line": "CEM", "method": "syncytia", "result": "185 µM"}
{"compound": "CCCCCCCCCCCCCCC(=O)Oc1ccc(OP(=O)(OCc2ccc(OC(=O)CCCC)cc2)OP(=O)(O)OP(=O)(O)OC[C@@H]2C=C[C@H](n3cc(C)c(=O)[nH]c3=O)O2)cc1", "strain or isolate": "ROD", "cell line": "CEM", "method": "syncytia / visual reading", "result": "0.32 µM"}
{"compound": "CC1=C[C@H](Cn2cnc3c(N)ncnc32)C[C@@H]1CO", "strain or isolate": "ROD", "cell line": "MT-4", "method": "MTT", "result": ">100 µg/mL"}
{"compound": "CCc1c(Cc2ccccc2)nc(OC(C)C)[nH]c1=O", "strain or isolate": "ROD", "cell line": "MT-4", "method": "cytopathic effect / MTT", "result": ">200 µM"}
{"compound": "COc1ccc(S(=O)(=O)NC(Cc2ccccc2)c2nnc(Nc3ccc(F)cc3)s2)cc1", "strain or isolate": "ROD", "cell line": "MT-4", "method": "MTT", "result": ">2.04 µM"}
{"compound": "C=C(C)[C@]1(O)C[C@@H](C)[C@@]2(O)[C@H]([C@H]1OC(=O)/C=C/C=C/CCCCC)[C@@H]1O[C@]1(CO)[C@@H](O)[C@]1(O)C(=O)C(C)=C[C@H]12", "strain or isolate": "ROD", "cell line": "C8166", "method": "syncytia", "result": "0.03132 µM"}
{"compound": "COC(=O)CCCNP(=O)(OC[C@@H]1C=C[C@H](n2cc(C)c(=O)[nH]c2=O)O1)Oc1ccccc1", "strain or isolate": "ROD", "cell line": "CEM + CEM/0", "method": "cytopathic effect / trypan blue", "result": "≥250 µM"}
{"compound": "Nc1cc(OC[C@H]2CC[C@@H](COCc3ccccc3)O2)nc(N)n1", "strain or isolate": "ROD", "cell line": "CEM", "method": "syncytia", "result": ">250 µM"}
{"compound": "Fc1ccc(-c2nc(-c3nnc(C45CCC6CC(CC4C6)C5)o3)cs2)cc1", "strain or isolate": "ROD", "cell line": "MT-4", "method": "MTT", "result": ">75.2 µM"}
{"compound": "CCOC(=O)c1nnsc1NCCCCNc1snnc1C(=O)OCC", "strain or isolate": "ROD", "result": ">105 µM"}
{"compound": "Nc1nc(Cl)cc(OC[C@H]2CC[C@@H](COCc3ccccc3)O2)n1", "strain or isolate": "ROD", "cell line": "CEM", "method": "syncytia", "result": ">50 µM"}
{"compound": "CC(C)Oc1nc(Cc2ccccc2)cc(=O)[nH]1", "strain or isolate": "ROD", "cell line": "MT-4", "method": "cytopathic effect / MTT", "result": ">200 µM"}
{"compound": "Nc1nc(N)nc(OC[C@H]2CC[C@@H](COc3nc(N)nc(N)n3)O2)n1", "strain or isolate": "ROD", "cell line": "CEM", "method": "syncytia", "result": ">50 µM"}
{"compound": "CCCCCCCCCCCCCCC(=O)Oc1ccc(OP(=O)(OCc2ccc(OC(=O)CC)cc2)OP(=O)(O)OP(=O)(O)OC[C@@H]2C=C[C@H](n3cc(C)c(=O)[nH]c3=O)O2)cc1", "strain or isolate": "ROD", "cell line": "CEM", "method": "syncytia / visual reading", "result": "0.39 µM"}
{"compound": "COc1ccc(Nc2nnc(C(Cc3ccccc3)NS(=O)(=O)c3ccc(OC)cc3)s2)cc1", "strain or isolate": "ROD", "cell line": "MT-4", "method": "MTT", "result": ">93.25 µM"}
{"compound": "Clc1cccc(-c2nc(-c3nnc(C45CCC6CC(CC4C6)C5)o3)cs2)c1", "strain or isolate": "ROD", "cell line": "MT-4", "method": "MTT", "result": ">125 µM"}
{"compound": "Nc1cc(OCC2O[C@H](COCc3ccccc3)[C@@H](OCc3ccccc3)[C@H]2OCc2ccccc2)nc(N)n1", "strain or isolate": "ROD", "cell line": "CEM", "method": "syncytia", "result": ">10 µM"}
{"compound": "C[C@H](NP(=O)(OC[C@@H]1CCC(n2ccc(=O)[nH]c2=O)O1)Oc1ccccc1)C(=O)OCc1ccccc1", "strain or isolate": "ROD", "cell line": "CEM", "method": "syncytia", "result": "50.8 µM"}
{"compound": "Nc1cc(OC[C@H]2CC[C@@H](CO)O2)nc(N)n1", "strain or isolate": "ROD", "cell line": "CEM", "method": "syncytia", "result": ">250 µM"}
{"compound": "Nc1nc(N)c2nn(C[C@@H](CF)OCP(=O)(O)O)nc2n1", "cell line": "CEM", "method": "syncytia", "result": "55 µg/mL"}
{"compound": "C=C(C)[C@@H]1CC[C@]2(C(=O)NCCCCCCCC(=O)N[C@@H](CC(C)C)[C@@H](O)CC(=O)O)CC[C@]3(C)[C@H](CC[C@@H]4[C@@]5(C)CC[C@H](O)C(C)(C)[C@@H]5CC[C@]43C)[C@@H]12", "strain or isolate": "EHO", "cell line": "MT-4", "method": "cytopathic effect / MTT", "result": ">10 µM"}
{"compound": "Cc1c(Cc2ccccc2)nc(OC2CCCC2)[nH]c1=O", "strain or isolate": "ROD", "cell line": "MT-4", "method": "cytopathic effect / MTT", "result": ">200 µM"}
{"compound": "CC1=C[C@H](Cn2cnc3c(NC4CC4)ncnc32)C[C@@H]1CO", "strain or isolate": "ROD", "cell line": "MT-4", "method": "MTT", "result": ">100 µg/mL"}
{"compound": "CCCCCCCCCCCCCCC(=O)Oc1ccc(COP(=O)(Oc2ccc(OC(=O)CCCC(=O)OCCOCCOCCOC)cc2)OP(=O)(O)OP(=O)(O)OC[C@@H]2C=C[C@H](n3cc(C)c(=O)[nH]c3=O)O2)cc1", "strain or isolate": "ROD", "cell line": "CEM", "method": "syncytia / visual reading", "result": "0.65 µM"}
{"compound": "O=c1cc(Cc2ccccc2)nc(OC2CCCCC2)[nH]1", "strain or isolate": "ROD", "cell line": "MT-4", "method": "cytopathic effect / MTT", "result": ">200 µM"}

The first 5 rows once more:

compound	strain or isolate	cell line	method	result
COC(=O)CNP(=O)(OC[C@@H]1C=C[C@H](n2cc(C)c(=O)[nH]c2=O)O1)Oc1ccccc1	ROD	CEM + CEM/0	cytopathic effect / trypan blue	6 µM
Clc1ccc(-c2nc(-c3nnc(C45CCC6CC(CC4C6)C5)o3)cs2)cc1	ROD	MT-4	MTT	>125 µM
COC(=O)[C@H](C)NP(=O)(OC[C@@H]1C=C[C@H](n2cc(C)c(=O)[nH]c2=O)O1)Oc1ccccc1	ROD	CEM + CEM TK-	cytopathic effect / trypan blue	0.075 µM
COc1ccc(S(=O)(=O)NC(Cc2ccccc2)c2nnc(Nc3ccc(Br)cc3)s2)cc1	ROD	MT-4	MTT	>1.98 µM
COc1ccc(OP(=O)(N[C@@H](C)C(=O)OCc2ccccc2)OC[C@@H]2CCC(n3ccc(=O)[nH]c3=O)O2)c2ccccc12	ROD	CEM	syncytia	21 µM

Lines come from different laboratories, so protocols vary.